{"source": "PubChem BioAssay AID504761 – Drosophila RNAi Screening Center | 2011", "aim": "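Insect host genes that dengue virus relies on to spread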 (primary screen)", "cell system": "D.Mel-2 cells from Drosophila", "reagents": "long dsRNA against Drosophila genes", "treatment": "infection with dengue virus type 2; dose and infection time not stated", "read-out": "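Cells stained for dengue envelope protein and imaged; percent of infected cells per well on duplicate plates, ranked by infection, with stained nuclei counted for cell number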", "scale": "infection score: higher = more virus-infected cells; cell count: higher = more cells in the well", "call rule": "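Low infection ranks in the two replicates (chance level up to 0.065) followed by a retest with a 1.5-fold or larger significant decrease, p below 0.05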", "calls": "active = confirmed: knock-down lowers infection; inactive = not picked or not confirmed", "note": "The deposit covers about 22,000 reagents; shown is a random part of those that have a named target and a result. Of all reagents, 116 (0.52%) were called active. 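Calls depend on retest data that are not deposited; infection was ranked per plate without normalising between plates; the unit of the infection score is not given.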 Raw values are not corrected between plates. A number with no mark means an inactive call. Not all columns of the deposit are shown. Not stated in the record: the amount of reagent, the time to read-out."}
{"Target gene":"na","amplicon":"DRSC19639","infection score, replicate 1":15.3,"cell count, replicate 1":4976}
{"Target gene":"na","amplicon":"DRSC29828","infection score, replicate 1":10.5,"cell count, replicate 1":6314}
{"Target gene":"CG31643","amplicon":"DRSC00906","infection score, replicate 1":6.11,"cell count, replicate 1":6119}
{"Target gene":"tbrd-2","amplicon":"DRSC07020","infection score, replicate 1":4.85,"cell count, replicate 1":6023}
{"Target gene":"MED11","amplicon":"DRSC23091","infection score, replicate 1":7.21,"cell count, replicate 1":5212}
{"Target gene":"MED11","amplicon":"DRSC25948","infection score, replicate 1":5.53,"cell count, replicate 1":6624}
{"Target gene":"dup","amplicon":"DRSC07088","infection score, replicate 1":9.05,"cell count, replicate 1":995}
{"Target gene":"CG18343","amplicon":"DRSC06726","infection score, replicate 1":4.19,"cell count, replicate 1":6557}
{"Target gene":"CG17580","amplicon":"DRSC06683","infection score, replicate 1":10.8,"cell count, replicate 1":6387}
{"Target gene":"CG17580","amplicon":"DRSC27009","infection score, replicate 1":20.1,"cell count, replicate 1":6701}
{"Target gene":"CG9673","amplicon":"DRSC20202","infection score, replicate 1":16.9,"cell count, replicate 1":4147}
{"Target gene":"Csas","amplicon":"DRSC22390","infection score, replicate 1":0.6,"cell count, replicate 1":5968}
{"Target gene":"aly","amplicon":"DRSC08707","infection score, replicate 1":3.2,"cell count, replicate 1":6276}
{"Target gene":"aly","amplicon":"DRSC21784","infection score, replicate 1":2.37,"cell count, replicate 1":6674}
{"Target gene":"Cpr11B","amplicon":"DRSC19859","infection score, replicate 1":1.12,"cell count, replicate 1":6531}
{"Target gene":"AANATL3","amplicon":"DRSC02089","infection score, replicate 1":5.85,"cell count, replicate 1":6340}
{"Target gene":"Vm26Ac","amplicon":"DRSC02329","infection score, replicate 1":5.59,"cell count, replicate 1":5978}
{"Target gene":"Vm26Ac","amplicon":"DRSC26887","infection score, replicate 1":7.15,"cell count, replicate 1":6324}
{"Target gene":"bard","amplicon":"DRSC14796","infection score, replicate 1":2.72,"cell count, replicate 1":7127}
{"Target gene":"CG32249","amplicon":"DRSC08101","infection score, replicate 1":6.03,"cell count, replicate 1":6551}
{"Target gene":"CG32249","amplicon":"DRSC08177","infection score, replicate 1":2.79,"cell count, replicate 1":6199}
{"Target gene":"CG32249","amplicon":"DRSC22444","infection score, replicate 1":3.01,"cell count, replicate 1":5942}

Taken from above:
aly [DRSC21784], infection score, replicate 1 = 2.37
Result of CG32249 [DRSC08177] under “cell count, replicate 1”: 6199
